Source: the supplement of paper PMC9931576
Human monoclonal antibodies against the spike receptor-binding domain (heavy:light variable regions). IC50 against pseudoviruses bearing the spike of naturally observed variants; lower = stronger; >10 µg/ml means not reached at the top dose. No active / inactive call. The stated detection limit is 0.0005 µg/ml; values near or below 0.001 µg/ml lie at the floor of the assay.

B1: BD-623 (protein)
chain 1: EVQLVESGGGLVQPGGSLRLSCAASGVTVSSNYMSWVRQAPGKGLEWVSAVYSGGSTYYADSVKGRFTISRHNSKNTLYLQMKSLRPEDTAIYYCARLINHYYDSSGDGGAFDIWGQGTMVTVSS
chain 2: QSALTQPASVSGSPGQSITISCTGTSSDVGSYNLVSWYQQRPGKAPKLILYEVTKRPSGVSNRFSGSKSGNTASLAISGLQAEDEADYYCCSYAGSSTWVFGGGTKLTVL
B2: BD55-767 (protein)
chain 1: QVQLVQSGAEVKKPGSSVRVSCEVSGGTFNMYTFNWVRQAPGQGLEWMGKIIPILNVVDYPQKFQGRVAITADKSTNTAYMEMSSLRSEDTAMYYCAKDLVSSTSGGFDYWGQGTLVTVSS
chain 2: QSVLTQPPSVSGAPGQRVTISCTGGNSNIGAGYEVHWYQKLPGTAPKLLIYGTTNRPSGVPDRFSGSKSDTSASLAITGLQPEDEADYYCHSYDSSLTGWVFGGGTKVTVL
B3: BD55-958 (protein)
chain 1: QVQLHQWGAGLLKPSETLSRTCAVYGGSFSGFFWAWIRQSPEKGLEWIGEISDTGDTNYNPSLKSRLALSVDTFKNQFSLTLTSVTAADTSTYFCVRGPNRHCRAGSCNTYVYWSQGTLVTVSS
chain 2: EIVLTQSPGTLSLSPGSTATLFCRASQAISGNYLAWFQQRPGQAPRLLIYDASSRATAVPDRFSGGGSGTDFTLTIKGLEPEDFAVYYCHQYGTLPITFGQGTKIEVK
B4: BD55-965 (protein)
chain 1: QVQLVQSGPEVAKPGSSVKVSCQASGDNFSKYSISWVRQAPGQGLEWMGRILPVVGAASSAKKFQGRVTISADKSTSTAYMEMTSLRSEDTAIYYCASAPSPTNPQSHCSGTSCPLDVWGQGTTLIVSS
chain 2: EIVLTQSPGTLSLSPGERATLSCRASQSVNSAYLAWYQQKPGQAPRLLIYGASNRATGIPDRFSVSGSGTDFTLTISRLDPEDFAVYFCQQYHGSPWTFGQGTKV
B5: BD55-972 (protein)
chain 1: QVQLVQSGAEVKKPGASVRISCKASGYSISNFAIHWVRQAPGQSLEWVGWINGVNGNRKYSEKFQGRVAITRDTSASTAYMDLSSLRLDDTAIYYCARDPTHPPQPPYYHAGSGQLDYWGQGTLVTVSS
chain 2: DIQMTQSPSSVSASIGDRVTITCRASQPISTYLSWYQQTPGKAPKLLIYNASTLQSGVPSRFVGSGSGTDFALSIYGLQPEDFATYFCQQSFTNPRTFGQGTKVDIK
B6: BD55-987 (protein)
chain 1: QVQLVQSGAEVKKPGSSVKVSCKASGDTFSRYAITWVRQAPGQGLDWMGRIIPRFGNRNYAQKFQDRVTFTAETSTSSVYMEMSGLRSDDTAVYYCATTPFFSDSGGHYCDFWGQGTLVTVSS
chain 2: EIVLTQSPGTLSFSPGERATLSCRASQSVGGGYLAWYQQKPGQAPRLLIHGVSNRAPGIPDRFSGSGSGTDFTLTIDRLEPEDFAVYYCQQYSRSPRTFGQGTKLEIK

Biological target: SARS-CoV-2 Omicron BA.1 spike pseudovirus
Test: pseudovirus neutralization IC50; higher = weaker neutralization
Method: (§1)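 Single-round VSV luciferase pseudovirus mixed with antibody dilutions for 1 h and put on Huh-7 cells for about a day; IC50 from the dose curve.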

Q: For B1, which “pseudovirus neutralization IC50” value is on record?
A: Its value is greater than 10 µg/mL.

Q: For B2, which “pseudovirus neutralization IC50” value is on record?
A: The value was 0.0236 µg/mL.

Q: For B3, which “pseudovirus neutralization IC50” value is on record?
A: Its value is greater than 10 µg/mL.

Q: How did the “pseudovirus neutralization IC50” value turn out when B4 was run?
A: The value was 0.0872 µg/mL.

Q: B5 was tested. Which “pseudovirus neutralization IC50” value did it give?
A: The value was greater than 10 µg/mL.

Q: For B6, which “pseudovirus neutralization IC50” value is on record?
A: Its value is 0.0122 µg/mL.

Biological target: SARS-CoV-2 Omicron BA.2 spike pseudovirus
Test: as above
Method: as §1

Q: With B1 as the binder, how does the “pseudovirus neutralization IC50” value read?
A: Its value is greater than 10 µg/mL.

Q: Which “pseudovirus neutralization IC50” value does the source give for B2 here?
A: Its value is 0.0258 µg/mL.

Q: For B3, which “pseudovirus neutralization IC50” value is on record?
A: The value was greater than 10 µg/mL.

Q: How did the “pseudovirus neutralization IC50” value turn out when B4 was run?
A: The value was 0.0455 µg/mL.

Q: For B5, which “pseudovirus neutralization IC50” value is on record?
A: The value was greater than 10 µg/mL.

Q: With B6 as the binder, how does the “pseudovirus neutralization IC50” value read?
A: Its value is 0.0123 µg/mL.

Biological target: SARS-CoV-2 Omicron BA.2.75 spike pseudovirus
Test: as above
Method: as §1

Q: How did the “pseudovirus neutralization IC50” value turn out when B1 was run?
A: Its value is greater than 10 µg/mL.

Q: For B2, which “pseudovirus neutralization IC50” value is on record?
A: Its value is 0.023 µg/mL.

Q: Which “pseudovirus neutralization IC50” value does the source give for B3 here?
A: The value was greater than 10 µg/mL.

Q: Which “pseudovirus neutralization IC50” value does the source give for B4 here?
A: The value was 0.0463 µg/mL.

Q: How did the “pseudovirus neutralization IC50” value turn out when B5 was run?
A: Its value is greater than 10 µg/mL.

Q: B6 was tested. Which “pseudovirus neutralization IC50” value did it give?
A: Its value is 0.00728 µg/mL.

Biological target: SARS-CoV-2 Omicron BA.5 spike pseudovirus
Test: as above
Method: as §1

Q: Which “pseudovirus neutralization IC50” value does the source give for B1 here?
A: Its value is greater than 10 µg/mL.

Q: With B2 as the binder, how does the “pseudovirus neutralization IC50” value read?
A: Its value is 0.936 µg/mL.

Q: B3 was tested. Which “pseudovirus neutralization IC50” value did it give?
A: Its value is greater than 10 µg/mL.

Q: With B4 as the binder, how does the “pseudovirus neutralization IC50” value read?
A: The value was greater than 10 µg/mL.

Q: With B5 as the binder, how does the “pseudovirus neutralization IC50” value read?
A: The value was greater than 10 µg/mL.

Q: For B6, which “pseudovirus neutralization IC50” value is on record?
A: Its value is greater than 10 µg/mL.

Biological target: SARS-CoV-2 Omicron BQ.1.1 spike pseudovirus
Test: as above
Method: as §1

Q: With B1 as the binder, how does the “pseudovirus neutralization IC50” value read?
A: The value was greater than 10 µg/mL.

Q: With B2 as the binder, how does the “pseudovirus neutralization IC50” value read?
A: Its value is greater than 10 µg/mL.

Q: B3 was tested. Which “pseudovirus neutralization IC50” value did it give?
A: The value was greater than 10 µg/mL.

Q: How did the “pseudovirus neutralization IC50” value turn out when B4 was run?
A: Its value is greater than 10 µg/mL.

Q: Which “pseudovirus neutralization IC50” value does the source give for B5 here?
A: Its value is greater than 10 µg/mL.

Q: Which “pseudovirus neutralization IC50” value does the source give for B6 here?
A: The value was greater than 10 µg/mL.

Biological target: SARS-CoV-2 Omicron XBB spike pseudovirus
Test: as above
Method: as §1

Q: For B1, which “pseudovirus neutralization IC50” value is on record?
A: The value was greater than 10 µg/mL.

Q: With B2 as the binder, how does the “pseudovirus neutralization IC50” value read?
A: The value was greater than 10 µg/mL.

Q: For B3, which “pseudovirus neutralization IC50” value is on record?
A: Its value is greater than 10 µg/mL.

Q: B4 was tested. Which “pseudovirus neutralization IC50” value did it give?
A: The value was greater than 10 µg/mL.

Q: B5 was tested. Which “pseudovirus neutralization IC50” value did it give?
A: Its value is greater than 10 µg/mL.

Q: With B6 as the binder, how does the “pseudovirus neutralization IC50” value read?
A: Its value is greater than 10 µg/mL.

Biological target: SARS-CoV-2 early D614G spike pseudovirus
Test: as above
Method: as §1

Q: With B1 as the binder, how does the “pseudovirus neutralization IC50” value read?
A: The value was 0.0017 µg/mL.

Q: B2 was tested. Which “pseudovirus neutralization IC50” value did it give?
A: The value was 0.101 µg/mL.

Q: Which “pseudovirus neutralization IC50” value does the source give for B3 here?
A: Its value is greater than 10 µg/mL.

Q: For B4, which “pseudovirus neutralization IC50” value is on record?
A: Its value is 0.00165 µg/mL.

Q: How did the “pseudovirus neutralization IC50” value turn out when B5 was run?
A: The value was 0.013 µg/mL.

Q: For B6, which “pseudovirus neutralization IC50” value is on record?
A: Its value is 0.00133 µg/mL.
